Compound potency records, mixed from different reports. Data source: NIAID ChemDB in PubChem.

All rows: toxicity to cultured cells; read-out: CC50

Conditions beyond the fields shown may differ between rows.

structure | cells | value
Cc1nc2c(N)ncnc2n1[C@@H]1O[C@H](CO)[C@@H](O)[C@H]1O | VERO | 515 µM
CS/C(N)=N\N=C\c1ccc(Cl)c(Cl)c1 | Chorioallantoic membrane | 707 µg/mL
CCCCCCCCCCCCCCCCCCOCCOP(=O)(O)COCCn1cnc2c(=O)[nH]c(N)nc21 | HFF | 1.9 µM
Nc1nc(=O)n([C@@H]2C=C(CO)[C@@H](O)[C@H]2O)cc1F | MK2 | >100 µg/mL
Nc1nc(=O)n([C@@H]2O[C@H](CO)[C@@H](O)[C@@H]2O)cc1F | C1271 | 0.3 µM
CCn1c(-c2ccccc2)cc(=O)c2c(C)c(OCC(C)C)ccc21 | HeLa S3 | >4 µg/mL
O=S(=O)(O)c1c2ccccc2c(-c2c3nc(c(-c4c5ccccc5c(S(=O)(=O)O)c5ccccc45)c4ccc([nH]4)c(-c4c5ccccc5c(S(=O)(=O)O)c5ccccc45)c4nc(c(-c5c6ccccc6c(S(=O)(=O)O)c6ccccc56)c5ccc2[nH]5)C=C4)C=C3)c2ccccc12 | CV-1 | 50 µg/mL
Clc1ccc(-c2cc(SSc3cc(-c4ccc(Cl)cc4)sn3)ns2)cc1 | HEP-2 | 88.39 µM
CCn1c2c(c(=O)c3cc(C(C)C)ccc31)Cc1ccccc1-2 | HeLa S3 | >4 µg/mL
NC(=O)c1csc([C@@H]2O[C@H](CO)[C@@H](O)[C@H]2O)n1 | LLC-MK2 | >100 µg/mL
COc1ccc(/C(C)=N/N=C(/N)SC)cc1 | Chorioallantoic membrane | 180 µg/mL
Nc1ccn(C[C@H]2COP(=O)(O)CO2)c(=O)n1 | LLC-MK2 | >100 µg/mL
Nc1ncnc2c1nc(Cl)n2[C@@H]1O[C@H](CO)[C@@H](O)[C@H]1O | C1271 | 45 µM
CC(C)(C)C(=O)OCOP(=O)(COCCn1cnc2c(N)ncnc21)OCOC(=O)C(C)(C)C | LLC-MK2 | >100 µg/mL
Nc1ncnc2c1ncn2[C@@H]1CC[C@@H](O)[C@H]1O | L929 | 73 µM
C#Cc1nc(Cl)c2ncn([C@@H]3O[C@H](CO)[C@@H](O)[C@H]3O)c2n1 | HFF | 3 µg/mL
CN1CCc2cc3c(cc2C(=O)Cc2ccc4c(c2C1)OCO4)OCO3 | CEF | 60 µM
CCCCCCCCCCOc1ccc(/C(C)=N/N=C(/N)SC)cc1 | Chorioallantoic membrane | 1000 µg/mL
Cc1ccc2c(c1)C(=Nc1ccc(S(=O)(=O)Nc3nc(C)cc(C)n3)cc1)C(=O)N2 | HFF | >300 µM
O=c1[nH]c(=O)n([C@H]2C[C@H](O)[C@@H](CO)O2)cc1I | C1271 | 2.5 µM
CCn1c(-c2nccs2)cc(=O)c2cc(C(C)C)ccc21 | HeLa S3 | >50 µg/mL
CCOC(OCC)c1cn([C@H]2C[C@H](OC(C)=O)[C@@H](COC(C)=O)O2)c(=O)[nH]c1=O | HFF | >300 µM
Cc1cc(C)nc(NS(=O)(=O)c2ccc(N=C3C(=O)N(CN4CCNCC4)c4ccccc43)cc2)n1 | HFF | 225 µM
N=c1c2ncn([C@@H]3O[C@H](CO)[C@@H](O)[C@H]3O)c2ncn1OCc1cc(F)cc(F)c1 | LLC-MK2 | >100 µg/mL
Cc1cc(C)nc(NS(=O)(=O)c2ccc(N=C3C(=O)Nc4ccccc43)cc2)n1 | HFF | >300 µM
CCn1c(-c2ccsc2)cc(=O)c2cc(C(C)C)ccc21 | HeLa S3 | >20 µg/mL
S=c1cc(-c2ccccc2)s[nH]1 | HEP-2 | 90.75 µM
Nc1nccc2c1ncn2[C@@H]1C[C@H](CO)[C@@H](O)[C@H]1O | LLC-MK2 | >100 µg/mL

The last 3 rows once more:

structure | cells | value
CCn1c(-c2ccsc2)cc(=O)c2cc(C(C)C)ccc21 | HeLa S3 | >20 µg/mL
S=c1cc(-c2ccccc2)s[nH]1 | HEP-2 | 90.75 µM
Nc1nccc2c1ncn2[C@@H]1C[C@H](CO)[C@@H](O)[C@H]1O | LLC-MK2 | >100 µg/mL

CCn is the concentration with n% toxicity to the cells.